A mixed list of measured activities; the numbers were collected in NIAID ChemDB.

All rows: tests in culture; agent: Vaccinia virus; measure: EC50

ECn: concentration that inhibits the pathogen or its effect by n%. Rows are shuffled and stem from different studies. An empty or dashed field is not shown.

{"smiles": "O=c1[nH]c(=O)n([C@H]2C[C@H](O)[C@@H](CO)O2)cc1C(F)(F)F", "cell line": "Primary rabbit kidney cells", "value": "0.33 µM"}
{"smiles": "Nc1ncnc2c1ncn2C[C@H](CF)OCP(=O)(O)O", "cell line": "E6SM", "value": "≥1200 µM"}
{"smiles": "Cc1ccc(S(=O)(=O)n2cc(I)c(=O)[nH]c2=O)cc1", "cell line": "HEL", "value": ">200 µM"}
{"smiles": "N#Cc1cn(C2O[C@H](CO)[C@@H](O)[C@H]2O)c(=O)[nH]c1=O", "cell line": "Primary rabbit kidney cells", "value": ">370 µM"}
{"smiles": "CO[C@@H]1[C@H](O)[C@@H](CO)O[C@H]1n1cnc2c(N)ncnc21", "cell line": "PRK", "value": "30 µg/mL"}
{"smiles": "OC[C@H]1O[C@H](c2cc(Cl)c(F)cc2F)C[C@@H]1O", "cell line": "E6SM", "value": ">400 µg/mL"}
{"smiles": "Nc1ncnc2c1ncn2[C@@H]1O[C@H](COP(=O)([O-])OP(=O)([O-])OC[C@@H]2OC(O)[C@H](O)[C@H](O)[C@H]2O)[C@@H](O)[C@H]1O", "cell line": "PRK", "value": "15 µg/mL"}
{"smiles": "Nc1ncc2ncn(C[C@H](CF)OCP(=O)(O)O)c2n1", "cell line": "E6SM", "value": ">600 µM"}
{"smiles": "Cc1cn(COCCO)c(=O)[nH]c1=O", "cell line": "PRK", "value": ">400 µg/mL"}
{"smiles": "Cc1cn([C@H]2C[C@H]([N+](=O)[O-])[C@@H](CO)O2)c(=O)[nH]c1=O", "cell line": "E6SM", "value": ">200 µg/mL"}
{"smiles": "Nc1ncnc2c1ncn2C(CF)CCCO", "cell line": "ESM", "value": ">400 µg/mL"}
{"smiles": "Nc1ncnc2c1ncn2[C@@H]1O[C@H](COP(=O)(O)O[C@@H]2[C@H](O)[C@@H](COP(=O)(O)OP(=O)(O)OC[C@@H]3OC(O)[C@H](O)[C@H](O)[C@H]3O)O[C@H]2n2cnc3c(N)ncnc32)[C@@H](O)[C@H]1O", "cell line": "PRK", "value": ">200 µg/mL"}
{"smiles": "OC[C@H]1O[C@@H](c2ccc(F)cc2F)C[C@@H]1O", "cell line": "E6SM", "value": ">400 µg/mL"}
{"smiles": "Cc1cccc(Cn2cnc(=N)c3[nH]cnc32)c1", "cell line": "BSC-1", "value": ">50 µg/mL"}
{"smiles": "C=C(N=CC)c1nc(-c2ccc(C)cc2)n(C2O[C@H](CO)[C@@H](O)[C@H](O)[C@H]2O)n1", "cell line": "E6SM", "value": ">200 µg/mL"}
{"smiles": "O=c1[nH]c(=O)n([C@H]2C[C@H](O)[C@@H](CO)O2)cc1Cc1ccccc1", "cell line": "HSF", "value": "600 µM"}
{"smiles": "Nc1nc2c(ncn2CCCC(O)CF)c(=O)[nH]1", "cell line": "ESM", "value": ">400 µg/mL"}
{"smiles": "OC[C@H]1O[C@@H](c2cc(I)c(F)cc2F)C[C@@H]1O", "cell line": "E6SM", "value": ">400 µg/mL"}
{"smiles": "O=c1[nH]c(=O)n([C@H]2C[C@H](O)[C@@H](CO)O2)cc1/C=C/Br", "cell line": "PRK", "value": "15 µg/mL"}
{"smiles": "Nc1ncnc2c1ncn2[C@@H]1O[C@H](COP(=O)(O)O)[C@@H](O)[C@H]1O", "cell line": "PRK", "value": "300 µg/mL"}
{"smiles": "Nc1ccn(C(CF)CCCO)c(=O)n1", "cell line": "ESM", "value": ">400 µg/mL"}
{"smiles": "N=c1ncn(Cc2ccccc2)c2nc[nH]c12", "cell line": "BSC-1", "value": ">100 µg/mL"}
{"smiles": "CC=NC(=N)c1nc(-c2cccc(OC)c2)n(COCCO)n1", "cell line": "E6SM", "value": "150 µg/mL"}
{"smiles": "CO[C@H]1[C@H](OC)[C@@H](CO)O[C@H]1n1cnc2c(N)ncnc21", "cell line": "PRK", "value": ">100 µg/mL"}
{"smiles": "Cc1ccccc1Cn1cnc(=N)c2[nH]cnc21", "cell line": "BSC-1", "value": ">50 µg/mL"}
{"smiles": "C[C@@H](Cn1cnc2c(N)nc(N)nc21)OCP(=O)(O)O", "cell line": "E6SM", "value": ">1200 µM"}
{"smiles": "Nc1nc2c(nc(Cl)n2COCCO)c(=O)[nH]1", "cell line": "PRK", "value": ">400 µg/mL"}
{"smiles": "CCCCCCCCC#Cc1cn(S(=O)(=O)c2ccc(C)cc2)c(=O)[nH]c1=O", "cell line": "HEL", "value": ">200 µM"}
{"smiles": "O=c1[nH]c(=O)n([C@H]2C[C@H](O)[C@@H](CO)O2)cc1CCCl", "cell line": "PRK", "value": "112 µg/mL"}
{"smiles": "C=C(N=CC)c1nc(-c2cccc(C)c2)n(C2O[C@H](CO)[C@@H](O)[C@H](O)[C@H]2O)n1", "cell line": "E6SM", "value": "300 µg/mL"}
{"smiles": "O=c1[nH]c(=O)n(COCCO)cc1Br", "cell line": "PRK", "value": ">400 µg/mL"}
{"smiles": "CCCCCCC#Cc1c[nH]c(=O)[nH]c1=O", "cell line": "HEL", "value": ">200 µM"}
{"smiles": "O=c1[nH]c(=O)n([C@H]2C[C@H](O)[C@@H](CO)O2)cc1/C=C/Br", "cell line": "Primary rabbit kidney cells", "value": "7 µg/mL"}
{"smiles": "O=c1[nH]c(=O)n([C@H]2C[C@H](O)[C@@H](COP(=O)(O)O)O2)cc1I", "cell line": "E6SM", "value": "0.2 µg/mL"}
{"smiles": "Nc1nccc2c1ncn2[C@@H]1CC[C@@H](O)[C@H]1O", "cell line": "L929", "value": "0.13 µM"}
{"smiles": "CC(=O)OCCOCn1cnc2c(Cl)nc(Cl)nc21", "cell line": "PRK", "value": ">10 µg/mL"}
{"smiles": "[N-]=[N+]=Nc1cccc(/C=C/c2cn([C@H]3C[C@H](O)[C@@H](COP(=O)(O)O)O3)c(=O)[nH]c2=O)c1", "cell line": "PRK", "value": "20 µg/mL"}
{"smiles": "CNc1nc2c(=O)[nH]c(N)nc2n1COCCO", "cell line": "PRK", "value": ">400 µg/mL"}
{"smiles": "Nc1nc2c(ncn2COCCO)c(=O)[nH]1", "cell line": "PRK", "value": "70 µg/mL"}
{"smiles": "Nc1nc(N)c2ncn(C[C@@H](CO)OCP(=O)(O)O)c2n1", "cell line": "E6SM", "value": "23.6 µM"}
{"smiles": "N=c1ncn(CC2CCCCC2)c2nc[nH]c12", "cell line": "BSC-1", "value": ">50 µg/mL"}
{"smiles": "C=C(N=CC)c1nc(-c2cccc(OC)c2)n(C2O[C@H](CO)[C@@H](O)[C@H](O)[C@H]2O)n1", "cell line": "E6SM", "value": "300 µg/mL"}
{"smiles": "Oc1cccc(O)c1-c1c2nc(c(-c3c(O)cccc3O)c3ccc([nH]3)c(-c3c(O)cccc3O)c3nc(c(-c4c(O)cccc4O)c4ccc1[nH]4)C=C3)C=C2", "strain or isolate": "IHD-J (EEV)", "cell line": "BSC-40", "value": "0.32 µg/mL"}
{"smiles": "CS(=O)Cc1cn([C@H]2C[C@H](O)[C@@H](CO)O2)c(=O)[nH]c1=O", "cell line": "PRK", "value": ">400 µg/mL"}
{"smiles": "Cc1cc([C@H]2C[C@H](O)[C@@H](CO)O2)c(F)cc1Cl", "cell line": "E6SM", "value": ">400 µg/mL"}
{"smiles": "O=C(CC1CCCCC1)N(O)c1ccccc1", "cell line": "E6SM", "value": ">80 µg/mL"}
{"smiles": "O=c1[nH]c(=O)n([C@H]2C[C@H](O)[C@@H](COP(=O)(O)O)O2)cc1CCc1ccccc1", "cell line": "PRK", "value": ">400 µg/mL"}
{"smiles": "OC[C@H]1O[C@@H](c2cc(/C=C/Br)c(F)cc2F)C[C@@H]1O", "cell line": "E6SM", "value": ">400 µg/mL"}
{"smiles": "CC=NC(=N)c1nc(-c2cccc(C)c2)n(C/C=C/c2ccccc2)n1", "cell line": "E6SM", "value": ">4 µg/mL"}
{"smiles": "OC[C@H]1O[C@H](c2cc(I)c(F)cc2F)C[C@@H]1O", "cell line": "E6SM", "value": ">400 µg/mL"}
{"smiles": "CC=NC(=N)c1nc(-c2ccc(C)cc2)n(Cc2ccccc2)n1", "cell line": "E6SM", "value": ">4 µg/mL"}
{"smiles": "Nc1nc2c(ncn2C[C@@H](CO)OCP(=O)(O)O)c(=O)[nH]1", "cell line": "E6SM", "value": "0.41 µM"}
{"smiles": "CCCCCCCC#Cc1cn(S(=O)(=O)c2ccc(C)cc2)c(=O)[nH]c1=O", "cell line": "HEL", "value": ">200 µM"}
{"smiles": "[N-]=[N+]=NC(CBr)c1cc([C@H]2C[C@H](O)[C@@H](CO)O2)c(F)cc1F", "cell line": "E6SM", "value": ">400 µg/mL"}

A second listing of 4 rows from above:

smiles | strain or isolate | cell line | value
C=C(N=CC)c1nc(-c2cccc(OC)c2)n(C2O[C@H](CO)[C@@H](O)[C@H](O)[C@H]2O)n1 | - | E6SM | 300 µg/mL
CO[C@@H]1[C@H](O)[C@@H](CO)O[C@H]1n1cnc2c(N)ncnc21 | - | PRK | 30 µg/mL
Nc1ncnc2c1ncn2[C@@H]1O[C@H](COP(=O)([O-])OP(=O)([O-])OC[C@@H]2OC(O)[C@H](O)[C@H](O)[C@H]2O)[C@@H](O)[C@H]1O | - | PRK | 15 µg/mL
Cc1ccccc1Cn1cnc(=N)c2[nH]cnc21 | - | BSC-1 | >50 µg/mL